# Mutational interference map of HIV-1 RNA dimerization

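Mutant RNA libraries with 1G, 2G or 3G starts, with or without cap, were folded at 37 °C for 30 min. Monomer and dimer bands were cut from native gels after folding in high salt (300 mM KCl, 5 mM MgCl2) or low salt (40 mM KCl, 0.1 mM MgCl2). Mutation frequencies in the two bands give Kdimer.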

RNA: 5' end of the HIV-1 NL4-3 genome, made in vitro. Positions 1-437 read:
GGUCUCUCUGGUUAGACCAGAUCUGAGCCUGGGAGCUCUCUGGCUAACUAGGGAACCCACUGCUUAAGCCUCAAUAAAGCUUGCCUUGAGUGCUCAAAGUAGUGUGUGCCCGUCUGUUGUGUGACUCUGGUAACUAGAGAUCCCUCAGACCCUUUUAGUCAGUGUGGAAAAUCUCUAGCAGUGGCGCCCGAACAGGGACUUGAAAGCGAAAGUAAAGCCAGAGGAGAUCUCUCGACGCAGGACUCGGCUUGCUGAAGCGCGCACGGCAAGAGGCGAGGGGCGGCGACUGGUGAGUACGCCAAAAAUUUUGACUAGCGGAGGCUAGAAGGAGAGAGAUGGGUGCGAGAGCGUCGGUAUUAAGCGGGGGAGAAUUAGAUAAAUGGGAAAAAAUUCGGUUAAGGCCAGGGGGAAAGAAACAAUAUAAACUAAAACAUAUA

Values are log2 Kdimer, the median over the changes at each position: higher means that changes there hinder dimer formation, below 0 that they favour it. One numbering serves 1G, 2G and 3G. A position is written with its base.

position,3G capped high-salt,3G capped low-salt,3G uncapped high-salt,3G uncapped low-salt
A256,0.74,1.44,1.00,1.59
G257,4.26,4.39,3.01,1.21
C258,4.54,3.47,6.19,3.55
G259,4.74,3.63,7.58,3.90
C260,5.22,3.66,6.67,3.71
G261,5.08,3.59,6.79,4.04
C262,3.41,3.32,3.90,3.86
A263,-0.15,1.13,0.16,1.17
C264,1.71,2.92,2.08,3.69
G265,2.68,3.25,2.90,3.38
G266,5.20,3.56,6.36,4.38
C267,4.13,3.22,4.75,3.53
A268,3.29,3.06,2.87,3.36
A269,1.72,1.70,1.48,1.69
G270,1.48,1.04,1.23,1.02
A271,-0.27,-0.24,-0.17,-0.15
G272,-0.61,-0.14,-0.21,-0.43
G273,-0.68,-0.11,-0.47,-0.57
C274,0.08,1.23,0.32,1.24
G275,2.89,2.47,2.59,2.66
A276,3.15,2.97,3.42,3.14
G277,2.56,2.48,2.26,2.66
G278,0.00,0.59,0.22,0.26
G279,-0.25,-0.19,0.39,-0.33
G280,-0.61,-0.43,-0.29,-0.52
C281,0.45,0.68,0.58,0.54
G282,0.40,1.24,0.59,1.29
G283,-0.22,-0.01,0.00,0.13
C284,-0.09,0.22,0.10,0.50
G285,0.83,1.33,1.17,1.69
A286,0.42,0.20,0.51,0.54
C287,-0.52,-0.79,-0.19,-0.78
U288,-0.44,-0.13,-0.15,-0.06
G289,0.58,0.23,0.33,0.16
G290,0.27,0.30,0.38,0.44
U291,-0.31,-0.18,0.14,-0.24
G292,-0.16,-0.19,-0.19,-0.22
A293,-0.21,-0.49,0.07,-0.46
G294,-0.58,-0.82,-0.34,-0.90
U295,-0.19,-0.52,-0.20,-0.46
A296,0.71,0.27,0.58,0.19
C297,-0.21,-0.03,0.08,-0.03
G298,-0.57,-0.49,-0.39,-0.31
C299,-0.26,-0.34,0.01,0.12
C300,-0.41,-0.33,-0.23,-0.52
A301,0.53,0.35,0.55,0.31
A302,0.00,-0.01,0.14,0.03
A303,-0.01,0.01,0.03,0.04
A304,-0.12,-0.01,0.11,0.08
A305,-0.09,0.23,-0.08,0.19
U306,-0.04,-0.01,0.01,-0.01
U307,0.09,-0.06,0.07,-0.08
U308,0.19,-0.08,-0.02,-0.13
U309,0.11,0.32,0.18,0.18
G310,-0.02,-0.02,0.00,0.10
A311,0.43,0.34,0.42,0.75
C312,0.31,0.17,0.28,0.33
U313,0.69,1.16,0.92,1.42
A314,0.18,-0.31,0.27,-0.22

Values reported by Ye et al. 2022 (doi:10.1038/s41594-022-00746-2).